Results of unrelated studies side by side (data: NIAID ChemDB).

All rows: tests in culture; organism: HIV-1; read-out: inhibition

Inhibition is in % at the dose shown (toxicity tests: loss of growth or viability). An empty or dashed field is not shown. Conditions beyond the fields shown may differ between rows.

compound | strain or isolate | changes | read by | tested at | result
O=C1CC(C#CC2CC2)(C(F)(F)F)c2cc(Cl)ccc2N1 |  | RT-K103N |  | 0.177 µM | 90%
C=C(C)[C@@H]1CC[C@]2(C(=O)O)CC[C@]3(C)C(CCC4[C@@]5(C)CC[C@H](OC(=O)CN(OC)[C@@H]6O[C@H](CO)[C@@H](O)[C@@H](O)[C@H]6O)C(C)(C)C5CC[C@]43C)C12 | IIIB |  | cytopathic effect | 10 µM | 29%
O=S(=O)(c1cccc2c(Cl)cccc12)N1CCCNCC1 | LAI |  |  | 16.7 µM | 8.25%
C=C(C)[C@@H]1CC[C@]2(C(=O)O)CC[C@]3(C)C(CCC4[C@@]5(C)CC[C@H](OC(=O)CN(OC)[C@@H]6O[C@H](C)[C@@H](O)[C@H](O)[C@H]6O)C(C)(C)C5CC[C@]43C)C12 | IIIB |  | cytopathic effect | 10 µM | 52%
Cc1ccc(C)c2c1NC(=O)C2CC(=O)N[C@@H](Cc1ccccc1)C(=O)N(C)c1ccccc1 | NL4-3 |  | fluorescence | 20 µM | 72%
CCCCCCCCCCCCCCCC(=O)NC1C(COP(=O)(O)OC2CC(COP(=O)(O)OC3C(O)C(CO)OC3n3cnc4c(N)ncnc43)OC2n2cnc3c(N)ncnc32)OC(n2cnc3c(N)ncnc32)C1O |  |  | syncytia | 100 µM | 99%
Cc1ccc(N(C)C(=O)[C@H](Cc2ccccc2)NC(=O)Cc2cccc3ccccc23)cc1 | NL4-3 |  | fluorescence | 2 µM | 96%
CC(C)(C)C(=O)Nc1ccn([C@H]2CC[C@@H](COC(=O)C(C)(C)C)O2)c(=O)n1 |  |  | cytopathic effect | 25 µM | 0%
COC(=O)N1C[C@H](n2cc(C)c(=O)[nH]c2=O)C[C@@H]1CO |  |  |  | 100 µM | 0%
CCCCCCCCCCCCCCCC(=O)NC1C(COP(=O)(O)OC2C(O)C(COP(=O)(O)OC3CC(CO)OC3n3cnc4c(N)ncnc43)OC2n2cnc3c(N)ncnc32)OC(n2cnc3c(N)ncnc32)C1O |  |  | p24 | 300 µM | 0%
O=S(=O)(NCCNC/C=C/c1ccc(Br)cc1)c1cccc2cnccc12 | LAI |  |  | 16.7 µM | 3%
Cc1cn([C@H]2CN[C@@H](CO)C2)c(=O)[nH]c1=O |  |  |  | 100 µM | 0%
CN(C(=O)[C@H](Cc1ccccc1)NC(=O)CN1C(=O)NC2(CCCCC2)C1=O)c1cccc(Br)c1 | NL4-3 |  | fluorescence | 20 µM | 36%
O=S(=O)(c1ccc(Cl)c2ccncc12)N1CCNCC1 | LAI |  |  | 16.7 µM | 8.25%
Nc1ccn([C@H]2CC[C@@H](CO)O2)c(=O)n1 |  |  | cytopathic effect | 16 µM | 99%
NCCNS(=O)(=O)c1ccc(Cl)c2ccncc12 | LAI |  |  | 16.7 µM | 3%
Cc1cc(C)cc(C[C@@H]2[C@H](O)[C@@H](O)[C@@H](Cc3ccccc3)N(Cc3ccc4[nH]nc(N)c4c3)C(=O)N2Cc2ccccc2)c1 | HXB2 |  |  | 0.1 µM | 90%
Nc1ncnc2c1ncn2Cc1cn(C(O)P(=O)(O)O)nn1 | IIIB |  |  | 100 µM | 0%
CC(C)(C)C(=O)OC[C@@H]1CC[C@H](n2ccc(N)nc2=O)O1 |  |  | cytopathic effect | 6.4 µM | 88%
Cc1ccc(C)c2c1NC(=O)C2CC(=O)N[C@@H](Cc1ccccc1)C(=O)N(C)c1ccc(Cl)cc1 | NL4-3 |  | fluorescence | 20 µM | 98%
CCOP(=O)(CC(O)n1cc(-n2c[n+](C)c(=O)[nH]c2=O)nn1)OCC | IIIB |  |  | 100 µM | 0%
Nc1ccn([C@@H]2O[C@H](CO)C=C2F)c(=O)n1 |  | RT-M184V | cytopathic effect / MTT | 1.8 µM | 90%
Cc1ccc(N(C)C(=O)[C@H](Cc2ccccc2)NC(=O)Cc2ccc3ccccc3c2)cc1 | NL4-3 |  | fluorescence | 2 µM | 80%
C=C(C)[C@@H]1CC[C@]2(C(=O)O)CC[C@]3(C)C(CCC4[C@@]5(C)CC[C@H](OC(=O)CN(OC)[C@@H]6O[C@H](CO)[C@@H](O)[C@@H](O)[C@@H]6O)C(C)(C)C5CC[C@]43C)C12 | IIIB |  | cytopathic effect | 10 µM | 6%
CCOP(=O)(CC(O)n1cc(N2C=CC(NC(C)=O)NC2=O)nn1)OCC | IIIB |  |  | 100 µM | 0%

A second listing of 2 rows from above:

compound	strain or isolate	changes	read by	tested at	result
CC(C)(C)C(=O)OC[C@@H]1CC[C@H](n2ccc(N)nc2=O)O1			cytopathic effect	6.4 µM	88%
Cc1ccc(C)c2c1NC(=O)C2CC(=O)N[C@@H](Cc1ccccc1)C(=O)N(C)c1ccccc1	NL4-3		fluorescence	20 µM	72%